Laboratory results reported in US11331327B2, “Antibacterial use of halogenated salicylanilides” (UNION therapeutics A/S, priority 2014, dated 2022).

Tested on: S. aureus
Test: Therapeutic index (LD50 rats / MIC100 S. aureus)
Parameters: species or system Staphylococcus aureus
Details: LD50 rats p.o. / MIC100 S. aureus

| SMILES | Ther. Index (LD50, rats/MIC100, S. aureus) |
| --- | --- |
| Cc1cc(C(C#N)c2ccc(Cl)cc2)c(Cl)cc1NC(=O)c1cc(I)cc(I)c1O (stereo not drawn) [Closantel, N-[5-chloro-4-[(4-chlorophenyl)cyanomethyl]-2-methylphenyl]-2-hydroxy-3,5-diiodobenzamide] | 176,000 |
| O=C(Nc1ccc([N+](=O)[O-])cc1Cl)c1cc(Cl)ccc1O [Niclosamide, 5-chloro-N-(2-chloro-4-nitrophenyl)-2-hydroxybenz-amide] | 12,500,000 |
| O=C(Nc1ccc(Oc2ccc(Cl)cc2)c(Cl)c1)c1cc(I)cc(I)c1O [Rafoxanide, 3′-chloro-4′-(p-chlorophenoxy)-3,5-diiodosalicylanilide] | 1,875,000 |
